According to paper PMC12116120, “Single-Domain Antibodies That Specifically Recognize Intact Capsids of Multiple Foot-and-Mouth Disease Serotype O Strains” (Vaccines, 2025):
Changes are numbered by the printed parent chain. Numbers in names are those of the source.

B1: M81F (VHH)
VHH: QVQLQQSGGGLVQAGDPLTLSCAASGRTVENYAMGWFRQTPGKEPEFVAAISWWSGSRADYSDSVKGRFTISRDNAKKTLYLQMSSLQPEDTGVYYCAAEPGTYFAGRFESEYDYWGQGTLVTVSS
B2: M208F (VHH)
VHH: QVQLQESGGGLVQAGGSLRLSCAASGRTFSSYAMGWFRQAPGKEREFVARINWSGGSTYYADSVKGRFTISRDNAKNTVYLQMNSLKPEDTAVYYCTAGFALPPSDYWGQGTRVTVSS
B3: M915F (VHH)
VHH: B2 VHH with Y95F, R113Q
B4: M918F (VHH)
VHH: B2 VHH with K43S, N52S, N77K, L102Y, R113Q
B5: M210F (VHH)
VHH: QVQLQESGGGLVQAGDALTLSCAASGRSVDNYAMGWFRQAPGKELEFVAAISWWSGSRTEYADSVKGRFTISRDNANGMVYLRMSSLRPEDTAVYYCAAERGTYFAGRSQDEYDDWGRGTQVTVSS
B6: M170F (VHH)
VHH: B2 VHH with K43S, N52S, R113Q

These binders were tested against T1, FMDV strain O1/BFS 1860/UK/67 146S particles (untreated antigen) (Foot-and-mouth disease virus serotype …, UniProt P03305, strain) (assay: ELISA). Conditions: one partner purified.
T1 construct: copies: 60 + 60 + 60 + 60

| Binder | binding result |
| --- | --- |
| B1 | binds |
| B2 | binds |
| B3 | binds |
| B4 | binds |
| B5 | binds |
| B6 | binds |
